In paper PMC3466270, “Stacking Interactions between Carbohydrate and Protein Quantified by Combination of Theoretical and Experimental Methods” (PLoS ONE, 2012):

Assays:
[1] = target: Ralstonia solanacearum lectin (RSL), wild type (Ralstonia solanacearum); assay: AUC
[2] = target: RSL W31A mutant (Ralstonia solanacearum); assay: AUC

Ralstonia solanacearum lectin (RSL), wild type (from UniProt A0A0S4TLR1 1-91) (natural protein)
stoichiometry N [1]: 3

RSL W31A mutant (natural protein)
stoichiometry N [2]: 3
